Source: PMC6669600 (Viruses, 2019)

What was measured:
[1] = molecular target: N36 (gp41 NHR-derived target mimic peptide) (Human immunodeficiency virus type 1 group M subtype B, UniProt P04578); test: CD spectroscopy of inhibitor complexed with N36; format: binding, HIV-1; conditions: thermal denaturation of complex at 222 nm, 20-98 C, 2 C/min, each peptide 10 μM in PBS; repeated two times, representative data
[2] = tested on: HIV-1HXB2 Env-mediated cell-cell fusion; format: cell-based; conditions: TZM-bl target, HL2/3 effector, 6 h coculture at 37 C, luciferase; triplicate, repeated three times, mean ± SD; SD; read-out: IC50, inhibition of HIV-1HXB2 Env-mediated cell-cell fusion

## CC[C@H](C)[C@H](NC(=O)[C@H](CCC(N)=O)NC(=O)[C@H](CCC(N)=O)NC(=O)[C@H](CC(N)=O)NC(=O)[C@H](CCC(N)=O)NC(=O)[C@H](CO)NC(=O)[C@H](CCCCN)NC(=O)[C@H](CCCCN)NC(=O)[C@@H](NC(=O)[C@H](CC(C)C)NC(=O)[C@H](CCC(=O)O)NC(=O)[C@H](CCC(=O)O)NC(=O)[C@@H](NC(=O)[C@H](CCCCN)NC(=O)[C@H](CCCCN)NC(=O)[C@@H](NC(=O)[C@H](Cc1ccc(O)cc1)NC(=O)[C@H](CCC(=O)O)NC(=O)[C@H](CCC(=O)O)NC(=O)[C@@H](NC(=O)[C@H](CCCCN)NC(=O)[C@H](CCCNC(=N)N)NC(=O)[C@H](CC(=O)O)NC(=O)[C@H](Cc1c[nH]c2ccccc12)NC(=O)[C@H](CCC(=O)O)NC(=O)[C@H](CCC(=O)O)NC(=O)[C@H](Cc1c[nH]c2ccccc12)NC(=O)[C@@H](NC(=O)[C@H](CCSC)NC(C)=O)[C@@H](C)O)[C@@H](C)CC)[C@@H](C)O)[C@@H](C)CC)[C@@H](C)CC)C(=O)N[C@@H](CC(=O)O)C(=O)N[C@@H](CC(C)C)C(N)=O [MT-WQ-IDL, reference compound]
[1]
  CD data (with N36) Tm (°C): 74.6 °C
[2]
  IC50: 0.7 ± 0.1 nM

## CC[C@H](C)[C@H](NC(=O)[C@H](CC(C)C)NC(=O)[C@H](CCC(=O)O)NC(=O)[C@H](CCC(=O)O)NC(=O)[C@@H](NC(=O)[C@H](CCCCN)NC(=O)[C@H](CCCCN)NC(=O)[C@@H](NC(=O)[C@H](Cc1ccc(O)cc1)NC(=O)[C@H](CCC(=O)O)NC(=O)[C@H](CCC(=O)O)NC(=O)[C@@H](NC(=O)[C@H](CCCCN)NC(=O)[C@H](CCCCN)NC(=O)[C@H](CC(=O)O)NC(=O)[C@H](Cc1c[nH]c2ccccc12)NC(=O)[C@H](CCC(=O)O)NC(=O)[C@H](CCC(=O)O)NC(=O)[C@H](Cc1c[nH]c2ccccc12)NC(C)=O)[C@@H](C)CC)[C@@H](C)O)[C@@H](C)CC)C(N)=O [SC19EK]
[1]
  CD data (with N36) Tm (°C): 57.7 °C
[2]
  IC50: 217 ± 16.5 nM

## CC[C@H](C)[C@H](NC(=O)[C@H](CC(C)C)NC(=O)[C@H](CCC(=O)O)NC(=O)[C@H](CCC(=O)O)NC(=O)[C@@H](NC(=O)[C@H](CCCCN)NC(=O)[C@H](CCCCN)NC(=O)[C@@H](NC(=O)[C@H](Cc1ccc(O)cc1)NC(=O)[C@H](CCC(=O)O)NC(=O)[C@H](CCC(=O)O)NC(=O)[C@@H](NC(=O)[C@H](CCCCN)NC(=O)[C@H](CCCCN)NC(=O)[C@H](CC(=O)O)NC(=O)[C@H](Cc1c[nH]c2ccccc12)NC(=O)[C@H](CCC(=O)O)NC(=O)[C@H](CCC(=O)O)NC(=O)[C@H](Cc1c[nH]c2ccccc12)NC(C)=O)[C@@H](C)CC)[C@@H](C)O)[C@@H](C)CC)C(=O)N[C@@H](CCCCN)C(N)=O [SC20EK]
[1]
  CD data (with N36) Tm (°C): 57.5 °C
[2]
  IC50: 202 ± 5.4 nM

## CC[C@H](C)[C@H](NC(=O)[C@H](CC(C)C)NC(=O)[C@H](CCC(=O)O)NC(=O)[C@H](CCC(=O)O)NC(=O)[C@@H](NC(=O)[C@H](CCCCN)NC(=O)[C@H](CCCCN)NC(=O)[C@@H](NC(=O)[C@H](Cc1ccc(O)cc1)NC(=O)[C@H](CCC(=O)O)NC(=O)[C@H](CCC(=O)O)NC(=O)[C@@H](NC(=O)[C@H](CCCCN)NC(=O)[C@H](CCCCN)NC(=O)[C@H](CC(=O)O)NC(=O)[C@H](Cc1c[nH]c2ccccc12)NC(=O)[C@H](CCC(=O)O)NC(=O)[C@H](CCC(=O)O)NC(=O)[C@H](Cc1c[nH]c2ccccc12)NC(C)=O)[C@@H](C)CC)[C@@H](C)O)[C@@H](C)CC)C(=O)N[C@@H](CCCCN)C(=O)N[C@@H](CCCCN)C(N)=O [SC21EK]
[1]
  CD data (with N36) Tm (°C): 56.9 °C
[2]
  IC50: 105 ± 12.8 nM

## CC[C@H](C)[C@H](NC(=O)[C@H](CC(C)C)NC(=O)[C@H](CCC(=O)O)NC(=O)[C@H](CCC(=O)O)NC(=O)[C@@H](NC(=O)[C@H](CCCCN)NC(=O)[C@H](CCCCN)NC(=O)[C@@H](NC(=O)[C@H](Cc1ccc(O)cc1)NC(=O)[C@H](CCC(=O)O)NC(=O)[C@H](CCC(=O)O)NC(=O)[C@@H](NC(=O)[C@H](CCCCN)NC(=O)[C@H](CCCCN)NC(=O)[C@H](CC(=O)O)NC(=O)[C@H](Cc1c[nH]c2ccccc12)NC(=O)[C@H](CCC(=O)O)NC(=O)[C@H](CCC(=O)O)NC(=O)[C@H](Cc1c[nH]c2ccccc12)NC(C)=O)[C@@H](C)CC)[C@@H](C)O)[C@@H](C)CC)C(=O)N[C@@H](CCCCN)C(=O)N[C@@H](CCCCN)C(=O)N[C@@H](CO)C(N)=O [SC22EK]
[1]
  CD data (with N36) Tm (°C): 59.5 °C
[2]
  IC50: 98.6 ± 7.2 nM

## CC[C@H](C)[C@H](NC(=O)[C@H](CC(C)C)NC(=O)[C@H](CCC(=O)O)NC(=O)[C@H](CCC(=O)O)NC(=O)[C@@H](NC(=O)[C@H](CCCCN)NC(=O)[C@H](CCCCN)NC(=O)[C@@H](NC(=O)[C@H](Cc1ccc(O)cc1)NC(=O)[C@H](CCC(=O)O)NC(=O)[C@H](CCC(=O)O)NC(=O)[C@@H](NC(=O)[C@H](CCCCN)NC(=O)[C@H](CCCCN)NC(=O)[C@H](CC(=O)O)NC(=O)[C@H](Cc1c[nH]c2ccccc12)NC(=O)[C@H](CCC(=O)O)NC(=O)[C@H](CCC(=O)O)NC(=O)[C@H](Cc1c[nH]c2ccccc12)NC(C)=O)[C@@H](C)CC)[C@@H](C)O)[C@@H](C)CC)C(=O)N[C@@H](CCCCN)C(=O)N[C@@H](CCCCN)C(=O)N[C@@H](CO)C(=O)N[C@@H](CCC(=O)O)C(N)=O [SC23EK]
[1]
  CD data (with N36) Tm (°C): 57.9 °C
[2]
  IC50: 94.2 ± 12.3 nM

## CC[C@H](C)[C@H](NC(=O)[C@H](CC(C)C)NC(=O)[C@H](CCC(=O)O)NC(=O)[C@H](CCC(=O)O)NC(=O)[C@@H](NC(=O)[C@H](CCCCN)NC(=O)[C@H](CCCCN)NC(=O)[C@@H](NC(=O)[C@H](Cc1ccc(O)cc1)NC(=O)[C@H](CCC(=O)O)NC(=O)[C@H](CCC(=O)O)NC(=O)[C@@H](NC(=O)[C@H](CCCCN)NC(=O)[C@H](CCCCN)NC(=O)[C@H](CC(=O)O)NC(=O)[C@H](Cc1c[nH]c2ccccc12)NC(=O)[C@H](CCC(=O)O)NC(=O)[C@H](CCC(=O)O)NC(=O)[C@H](Cc1c[nH]c2ccccc12)NC(C)=O)[C@@H](C)CC)[C@@H](C)O)[C@@H](C)CC)C(=O)N[C@@H](CCCCN)C(=O)N[C@@H](CCCCN)C(=O)N[C@@H](CO)C(=O)N[C@@H](CCC(=O)O)C(=O)N[C@@H](CCC(=O)O)C(N)=O [SC24EK]
[1]
  CD data (with N36) Tm (°C): 57.5 °C
[2]
  IC50: 75.7 ± 11.2 nM

## CC[C@H](C)[C@H](NC(=O)[C@H](CC(C)C)NC(=O)[C@H](CCC(=O)O)NC(=O)[C@H](CCC(=O)O)NC(=O)[C@@H](NC(=O)[C@H](CCCCN)NC(=O)[C@H](CCCCN)NC(=O)[C@@H](NC(=O)[C@H](Cc1ccc(O)cc1)NC(=O)[C@H](CCC(=O)O)NC(=O)[C@H](CCC(=O)O)NC(=O)[C@@H](NC(=O)[C@H](CCCCN)NC(=O)[C@H](CCCCN)NC(=O)[C@H](CC(=O)O)NC(=O)[C@H](Cc1c[nH]c2ccccc12)NC(=O)[C@H](CCC(=O)O)NC(=O)[C@H](CCC(=O)O)NC(=O)[C@H](Cc1c[nH]c2ccccc12)NC(C)=O)[C@@H](C)CC)[C@@H](C)O)[C@@H](C)CC)C(=O)N[C@@H](CCCCN)C(=O)N[C@@H](CCCCN)C(=O)N[C@@H](CO)C(=O)N[C@@H](CCC(=O)O)C(=O)N[C@@H](CCC(=O)O)C(=O)N[C@@H](CCC(N)=O)C(N)=O [SC25EK]
[1]
  CD data (with N36) Tm (°C): 57.3 °C
[2]
  IC50: 41.5 ± 3.1 nM

## CC[C@H](C)[C@H](NC(=O)[C@H](CC(C)C)NC(=O)[C@H](CCC(=O)O)NC(=O)[C@H](CCC(=O)O)NC(=O)[C@@H](NC(=O)[C@H](CCCCN)NC(=O)[C@H](CCCCN)NC(=O)[C@@H](NC(=O)[C@H](Cc1ccc(O)cc1)NC(=O)[C@H](CCC(=O)O)NC(=O)[C@H](CCC(=O)O)NC(=O)[C@@H](NC(=O)[C@H](CCCCN)NC(=O)[C@H](CCCCN)NC(=O)[C@H](CC(=O)O)NC(=O)[C@H](Cc1c[nH]c2ccccc12)NC(=O)[C@H](CCC(=O)O)NC(=O)[C@H](CCC(=O)O)NC(=O)[C@H](Cc1c[nH]c2ccccc12)NC(C)=O)[C@@H](C)CC)[C@@H](C)O)[C@@H](C)CC)C(=O)N[C@@H](CCCCN)C(=O)N[C@@H](CCCCN)C(=O)N[C@@H](CO)C(=O)N[C@@H](CCC(=O)O)C(=O)N[C@@H](CCC(=O)O)C(=O)N[C@@H](CCC(N)=O)C(=O)N[C@@H](CCC(N)=O)C(N)=O [SC26EK]
[1]
  CD data (with N36) Tm (°C): 57.8 °C
[2]
  IC50: 36.2 ± 4.2 nM

## CC[C@H](C)[C@H](NC(=O)[C@H](CC(C)C)NC(=O)[C@H](CCC(=O)O)NC(=O)[C@H](CCC(=O)O)NC(=O)[C@@H](NC(=O)[C@H](CCCCN)NC(=O)[C@H](CCCCN)NC(=O)[C@@H](NC(=O)[C@H](Cc1ccc(O)cc1)NC(=O)[C@H](CCC(=O)O)NC(=O)[C@H](CCC(=O)O)NC(=O)[C@@H](NC(=O)[C@H](CCCCN)NC(=O)[C@H](CCCCN)NC(=O)[C@H](CC(=O)O)NC(=O)[C@H](Cc1c[nH]c2ccccc12)NC(=O)[C@H](CCC(=O)O)NC(=O)[C@H](CCC(=O)O)NC(=O)[C@H](Cc1c[nH]c2ccccc12)NC(C)=O)[C@@H](C)CC)[C@@H](C)O)[C@@H](C)CC)C(=O)N[C@@H](CCCCN)C(=O)N[C@@H](CCCCN)C(=O)N[C@@H](CO)C(=O)N[C@@H](CCC(=O)O)C(=O)N[C@@H](CCC(=O)O)C(=O)N[C@@H](CCC(N)=O)C(=O)N[C@@H](CCC(N)=O)C(=O)N[C@@H](CCCCN)C(N)=O [SC27EK]
[1]
  CD data (with N36) Tm (°C): 57.8 °C
[2]
  IC50: 21.4 ± 2.5 nM

## CC[C@H](C)[C@H](NC(=O)[C@H](CC(C)C)NC(=O)[C@H](CCC(=O)O)NC(=O)[C@H](CCC(=O)O)NC(=O)[C@@H](NC(=O)[C@H](CCCCN)NC(=O)[C@H](CCCCN)NC(=O)[C@@H](NC(=O)[C@H](Cc1ccc(O)cc1)NC(=O)[C@H](CCC(=O)O)NC(=O)[C@H](CCC(=O)O)NC(=O)[C@@H](NC(=O)[C@H](CCCCN)NC(=O)[C@H](CCCCN)NC(=O)[C@H](CC(=O)O)NC(=O)[C@H](Cc1c[nH]c2ccccc12)NC(=O)[C@H](CCC(=O)O)NC(=O)[C@H](CCC(=O)O)NC(=O)[C@H](Cc1c[nH]c2ccccc12)NC(C)=O)[C@@H](C)CC)[C@@H](C)O)[C@@H](C)CC)C(=O)N[C@@H](CCCCN)C(=O)N[C@@H](CCCCN)C(=O)N[C@@H](CO)C(=O)N[C@@H](CCC(=O)O)C(=O)N[C@@H](CCC(=O)O)C(=O)N[C@@H](CCC(N)=O)C(=O)N[C@@H](CCC(N)=O)C(=O)N[C@@H](CCCCN)C(=O)N[C@@H](CCCCN)C(=O)N[C@@H](CC(N)=O)C(=O)N[C@@H](CCC(=O)O)C(N)=O [SC30EK]
[1]
  CD data (with N36) Tm (°C): 68.4 °C
[2]
  IC50: 0.9 ± 0.1 nM
